The results in this text go back to patent US20160024159A1, “Potent and selective inhibitors of Nav1.7” (published 2016).

“And” between values parts separate entries of the source, which are not always exact repeats. Identical values can stand only once.

Assay in all cases: cell-based or functional assay
Assay [1] concerns the target human voltage-gated sodium channel Nav1.3 (human) (UniProt Q9NY46).
Assay [2] has as its target human voltage-gated sodium channel Nav1.4 (human) (UniProt P35499).
The target of assay [3] is human voltage-gated sodium channel Nav1.5 (human) (UniProt Q14524).
In assay [4] the target is human voltage-gated sodium channel Nav1.7 (human) (UniProt Q15858).

As to “[Ala28]JzTx-V(1-29) (peptide; modification not given)”, the IC50 (IonWorks Quattro) in assay [1] is 250 nM; in assay [2] it was 290 nM; in assay [3] it was more than 5000 nM; in assay [4], 30 nM.

For the substance “[Ala18]JzTx-V(1-29) (peptide; modification not given)”, the IC50 (IonWorks Quattro) in assay [1] was 240 nM; in assay [2] it was 260 nM; in assay [3], more than 5000 nM; in assay [4] it was 40 nM.

Consider [1-Nal24]JzTx-V(1-29) (peptide), for which the IC50 (IonWorks Quattro) was 460 nM in assay [1], 330 nM in assay [2], more than 5000 nM in assay [3] and 75 nM in assay [4].

Consider “[Lys29]JzTx-V(1-29) (peptide; modification not given)”, for which the IC50 (IonWorks Quattro) in assay [1] is 2400 nM; in assay [2] it was 1300 nM; in assay [3] it was more than 5000 nM; in assay [4], 110 nM.

Turning to “[Glu20;Tyr28;2-Nal29]JzTx-V(1-29) (peptide; modification not given)”, the IC50, IonWorks Quattro electrophysiology in assay [1] was 2.2 µM; in assay [2], more than 5 µM; in assay [3], more than 5 µM; in assay [4], 0.044 µM.

As for “[Arg4]JzTx-V(1-29) (peptide; modification not given)”, the IC50 (IonWorks Quattro) came to 70 nM in assay [1], 160 nM in assay [2], 2000 nM in assay [3] and 14 nM in assay [4].

“[Ala22]JzTx-V(1-29) (peptide; modification not given)”: the IC50 (IonWorks Quattro) was 520 nM in assay [1], 410 nM in assay [2], more than 5000 nM in assay [3] and 62 nM in assay [4].

On to “[Glu1,20;Tyr28]JzTx-V(1-29) (peptide; modification not given)”, for which the IC50, IonWorks Quattro electrophysiology in assay [1] was more than 5 µM; in assay [2], more than 5 µM; in assay [3], 2 µM; in assay [4], 0.21 µM.

Turning to “[Glu20;Leu24;Tyr28]JzTx-V(1-29) (peptide; modification not given)”, the IC50, IonWorks Quattro electrophysiology in assay [1], in assay [2], in assay [3] and in assay [4] was more than 5 µM in each case.

On to “[Glu1;1-Nal7]JzTx-V(1-29) (peptide; modification not given)”, for which the IC50, IonWorks Quattro electrophysiology in assay [1] was 0.4 µM and 0.5 µM; in assay [2], 0.7 µM and 0.5 µM; in assay [3] it was more than 5 µM; in assay [4], 0.032 µM and 0.047 µM. In addition, the Nav1.4/Nav1.7 (ratio of IC50) in assay [2] is 21 fold and 10 fold.

As for “[Arg22]JzTx-V(1-29) (peptide; modification not given)”, the IC50 (IonWorks Quattro) in assay [1] was 80 nM; in assay [2] it was 170 nM; in assay [3], 2000 nM; in assay [4], 16 nM.

For the substance “[Arg11]JzTx-V(1-29) (peptide; modification not given)”, the IC50 (IonWorks Quattro) in assay [1] was determined as 30 nM; in assay [2] it was 90 nM; in assay [3] it was 860 nM; in assay [4] it was 7 nM.

As to “[Ala8]JzTx-V(1-29) (peptide; modification not given)”, the IC50 (IonWorks Quattro) in assay [1] is 210 nM; in assay [2] it was 250 nM; in assay [3], more than 5000 nM; in assay [4] it was 25 nM.

As to “[Arg8]JzTx-V(1-29) (peptide; modification not given)”, the IC50 (IonWorks Quattro) came to 50 nM in assay [1], 140 nM in assay [2], 1700 nM in assay [3] and 18 nM in assay [4].

With “[Glu20;Atz(NPEG10)29]JzTx-V(1-29) (peptide; modification not given)”, the IC50, IonWorks Quattro electrophysiology was more than 5 µM in assay [1], more than 5 µM in assay [2], 20.1 µM in assay [3] and 5 µM in assay [4]. Further, the Nav1.4/Nav1.7 (ratio of IC50) in assay [2] was 1 fold.

As to “[Glu20]JzTx-V(1-29) (peptide; modification not given)”, the IC50 (IonWorks Quattro) in assay [1] is 2500 nM; in assay [2], 4600 nM; in assay [3], more than 5000 nM; in assay [4], 73 nM.

With “[Ala12]JzTx-V(1-29) (peptide; modification not given)”, the IC50 (IonWorks Quattro) in assay [1] is 150 nM; in assay [2], 260 nM; in assay [3], more than 5000 nM; in assay [4], 22 nM.

As for “[Lys28]JzTx-V(1-29) (peptide; modification not given)”, the IC50 (IonWorks Quattro) in assay [1] was found to be 50 nM; in assay [2], 110 nM; in assay [3], 1500 nM; in assay [4] it was 14 nM.

Take “[Lys7]JzTx-V(1-29) (peptide; modification not given)”: the IC50 (IonWorks Quattro) in assay [1] is 310 nM; in assay [2] it was 430 nM; in assay [3] it was more than 5000 nM; in assay [4], 80 nM.

Take “[Lys17]JzTx-V(1-29) (peptide; modification not given)”: the IC50 (IonWorks Quattro) amounted to 30 nM in assay [1], 50 nM in assay [2], 890 nM in assay [3] and 10 nM in assay [4].

In the case of “[Arg28]JzTx-V(1-29) (peptide; modification not given)”, the IC50 (IonWorks Quattro) in assay [1] was determined as 60 nM; in assay [2], 140 nM; in assay [3] it was 1800 nM; in assay [4] it was 26 nM.

On to “[Ala13]JzTx-V(1-29) (peptide; modification not given)”, for which the IC50 (IonWorks Quattro) is 300 nM in assay [1], 570 nM in assay [2], more than 5000 nM in assay [3] and 79 nM in assay [4].

With “[Glu20;Val24;Tyr28]JzTx-V(1-29) (peptide; modification not given)”, the IC50, IonWorks Quattro electrophysiology in assay [1], in assay [2], in assay [3] and in assay [4] was more than 5 µM throughout.

For “[Glu20;2-Nal24;Tyr28]JzTx-V(1-29) (peptide; modification not given)”, the IC50, IonWorks Quattro electrophysiology in assay [1] was more than 7 µM; in assay [2] it was more than 7 µM; in assay [3], more than 7 µM; in assay [4], 0.86 µM and 1 µM.

Regarding “[Ala20]JzTx-V(1-29) (peptide; modification not given)”, the IC50 (IonWorks Quattro) in assay [1] was 260 nM; in assay [2], 420 nM; in assay [3], more than 5000 nM; in assay [4], 9 nM.

For the substance “[Glu20;Atz(NPEG10)23]JzTx-V(1-29) (peptide; modification not given)”, the IC50, IonWorks Quattro electrophysiology was more than 5 µM in assay [1], more than 5 µM in assay [2], 19.2 µM in assay [3] and 5 µM in assay [4]. The Nav1.4/Nav1.7 (ratio of IC50) in assay [2] is 1 fold.

Consider “[Lys13]JzTx-V(1-29) (peptide; modification not given)”, for which the IC50 (IonWorks Quattro) was 120 nM in assay [1], 470 nM in assay [2], more than 5000 nM in assay [3] and 64 nM in assay [4].

For “[Arg24]JzTx-V(1-29) (peptide; modification not given)”, the IC50 (IonWorks Quattro) in assay [1] was 4800 nM; in assay [2], 2500 nM; in assay [3], more than 5000 nM; in assay [4], 5000 nM.

In the case of “[1-Nal28]JzTx-V(1-29) (peptide; modification not given)”, the IC50 (IonWorks Quattro) in assay [1] was found to be 60 nM; in assay [2] it was 100 nM; in assay [3], 3600 nM; in assay [4] it was 6 nM.

For the substance “[Arg23]JzTx-V(1-29) (peptide; modification not given)”, the IC50 (IonWorks Quattro) turned out to be 150 nM in assay [1], 210 nM in assay [2], 2800 nM in assay [3] and 150 nM in assay [4].

Consider “[Glu1]JzTx-V(1-29) (peptide; modification not given)”, for which the IC50 (IonWorks Quattro) is 160 nM in assay [1], 230 nM in assay [2], more than 5000 nM in assay [3] and 18 nM in assay [4].

In the case of “[Ala23]JzTx-V(1-29) (peptide; modification not given)”, the IC50 (IonWorks Quattro) in assay [1] is 440 nM; in assay [2], 340 nM; in assay [3], more than 5000 nM; in assay [4], 300 nM.

Regarding “[Glu20;Tyr28;Asn29]JzTx-V(1-29) (peptide; modification not given)”, the IC50, IonWorks Quattro electrophysiology in assay [1] was more than 5 µM; in assay [2], more than 5 µM; in assay [3], more than 5 µM; in assay [4], 0.52 µM.

Take “[Arg12]JzTx-V(1-29) (peptide; modification not given)”: the IC50 (IonWorks Quattro) in assay [1] worked out at 50 nM; in assay [2], 150 nM; in assay [3], 2500 nM; in assay [4] it was 8 nM.

As to “[Nle6;Atz(NPEG10)8]JzTx-V(1-29) (peptide; modification not given)”, the IC50, IonWorks Quattro electrophysiology is more than 7 µM in assay [1], more than 7 µM in assay [2], more than 7 µM in assay [3] and 6.4 µM in assay [4].

As to “[Arg14]JzTx-V(1-29) (peptide; modification not given)”, the IC50 (IonWorks Quattro) in assay [1] turned out to be 40 nM; in assay [2] it was 80 nM; in assay [3] it was 1400 nM; in assay [4] it was 8 nM.
